From publication PMC3634732, “Chemical Chaperones Exceed the Chaperone Effects of RIC-3 in Promoting Assembly of Functional α7 AChRs” (PLoS ONE, 2013)

Sequences of proteins named here, by UniProt entry; tags and fusion partners are left off. A change or cut given only in a name is not applied to a line headed by its entry.
UniProt P36544: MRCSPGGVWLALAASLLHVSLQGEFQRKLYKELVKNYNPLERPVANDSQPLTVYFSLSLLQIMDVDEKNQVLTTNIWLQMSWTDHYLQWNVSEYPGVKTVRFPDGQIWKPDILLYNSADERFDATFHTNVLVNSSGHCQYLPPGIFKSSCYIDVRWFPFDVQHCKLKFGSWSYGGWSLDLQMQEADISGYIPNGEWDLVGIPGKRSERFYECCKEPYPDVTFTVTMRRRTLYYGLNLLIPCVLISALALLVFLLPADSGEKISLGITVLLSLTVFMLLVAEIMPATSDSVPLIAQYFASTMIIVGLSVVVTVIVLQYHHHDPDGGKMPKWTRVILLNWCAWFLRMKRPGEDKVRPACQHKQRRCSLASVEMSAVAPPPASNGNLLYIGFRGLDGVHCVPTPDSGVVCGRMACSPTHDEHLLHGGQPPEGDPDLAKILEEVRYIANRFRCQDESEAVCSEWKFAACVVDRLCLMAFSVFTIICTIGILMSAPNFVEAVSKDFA

Columns and labels:
α7 AChRs [1] = target: T1, α7 AChRs (Homo sapiens, UniProt P36544); assay: 125I αBgt binding to the surface of live α7/RIC-3 cells; details: read-out: KD, high affinity binding
α7 AChRs [2] = target: T1, α7 AChRs; assay: 125I αBgt total binding to fixed cells permeabilized with Triton X-100; details: read-out: KD, high affinity binding

With α bungarotoxin the Kd (α7 AChRs [1]) was 0.841 nM and the Kd (α7 AChRs [2]) was 2.18 nM.
